Results of unrelated studies side by side (data: NIAID ChemDB).

All rows: target-level tests; organism: HIV-1; target: Reverse transcriptase; endpoint: IC50

ICn: concentration for n% inhibition.

smiles	strain or isolate	mutations	read by	value
O=C(/C=C/c1ccc(O)c(O)c1)O[C@@H]1[C@H](O)C[C@@](O)(C(=O)O)C[C@H]1OC(=O)/C=C/c1ccc(O)c(O)c1	-	-	RT activity / absorbance	240 µM
Cc1cccc(CSc2nc(N)cc(Cl)n2)c1	RT-WT	-	nucleotide incorporation	0.28 µM
CCN1c2ncc(COc3cc[n+]([O-])c(C)c3)cc2C(=O)N(C)c2ccc(Cl)nc21	WT	-	nucleotide incorporation / radiometric	<1 µM
C[C@@H]1O[C@@H](Oc2c(-c3ccc(O)c(O)c3)oc3cc(O)cc(O)c3c2=O)[C@H](O)[C@H](O)[C@H]1O	-	-	-	>500 µM
COc1ccc2c(c1)N(C(=O)OC(C)C)[C@@H](CSC)C(=S)N2	-	RT-Y181I G190E	scintillation proximity / radiometric	>29 µM
CC(C)=CCOc1cc(NC(=S)c2ccoc2C)ccc1Cl	-	-	nucleotide incorporation	0.005 µg/mL
CCn1cc(C(=O)O)c(=O)c2cc(Br)c(Oc3ccnc(Nc4ccc(C#N)cc4)n3)cc21	-	-	RT activity / fluorescence	0.41 µM
COc1cc(O)c2c(=O)cc(-c3ccc(O)cc3)oc2c1	-	-	RT activity / absorbance	1087 µM
CC(C)Nc1cccnc1N1CCN(C(=O)c2cc3cc4c(cc3[nH]2)OCO4)CC1	IIIB	-	RT activity	0.23 µM
CC(C)(C)n1cc(C(=O)O)c(=O)c2cc(I)c(Oc3ccnc(Nc4ccc(C#N)cc4)n3)cc21	-	-	RT activity / fluorescence	6.3 µM
CCN1c2ncc(COc3ccc(O)cc3)cc2C(=O)N(C)c2ccc(Cl)nc21	-	RT-Y181C	nucleotide incorporation / radiometric	>1 µM
CC(C)=CCN1Cc2cccc3[nH]c(=S)n(c23)C[C@@H]1C	RT-WT	-	RT activity	0.4 µM
CCCCCCCCCCCCCC(=O)OC[C@H](COP(=O)(O)OC[C@H]1O[C@@H](n2cc(C)c(=O)[nH]c2=O)C[C@@H]1N=[N+]=[N-])OC(=O)CCCCCCCCCCCCC	LAV	-	RT activity	>100 µM
Nc1cc(Cl)nc(SCc2ccc3ccccc3c2)n1	-	RT-P236L	nucleotide incorporation	0.15 µM
CCC1(c2cccc(Cl)c2)Oc2ccccc2-n2cccc2C1=O	-	RT-Y181I	nucleotide incorporation / radiometric	0.8 µM
CCN1c2ncc(COc3ccccc3O)cc2C(=O)N(C)c2ccc(Cl)nc21	WT	-	nucleotide incorporation / radiometric	<1 µM
CCC(C)n1cc(C(=O)O)c(=O)c2cc(Br)c(Oc3ccnc(Nc4ccc(C#N)cc4)n3)cc21	-	-	RT activity / fluorescence	2.75 µM
COc1ccc(OC)c2c(=O)c(O)c[nH]c12	-	-	RT activity / nucleotide incorporation / radiometric	4.03 µM
CCN1c2ncc(COc3ccc(C(=O)OC)cc3)cc2C(=O)N(C)c2ccc(Cl)nc21	-	RT-Y181C	nucleotide incorporation / radiometric	>1 µM
COC(=O)c1cn(C)c2cc(Oc3ccnc(Nc4ccc(C#N)cc4)n3)c(Br)cc2c1=O	-	-	RT activity / fluorescence	0.59 µM
COc1ccccc1N1CCN(C(=O)c2cc3cc4c(cc3[nH]2)OCO4)CC1	IIIB	RT-Y181C	-	>50 µM
CCC1(c2cccc(I)c2)Oc2ccccc2-n2cccc2C1=O	WT	-	nucleotide incorporation / radiometric	0.05 µM
Cc1c(C(C)c2c(F)cccc2F)nc(SC2CCCC2)[nH]c1=O	-	RT-K103N	nucleotide incorporation / radiometric	0.03 µM
CCCCn1cc(C(=O)O)c(=O)c2cc(Br)c(Oc3ccnc(Nc4ccc(C#N)cc4)n3)cc21	-	-	RT activity / fluorescence	0.65 µM
CCNc1cccnc1N1CCN(C(=O)c2cc3cc4c(cc3[nH]2)OCO4)CC1	IIIB	-	RT activity	0.44 µM
CNc1nc(Cc2c(F)cccc2F)cc(=O)[nH]1	-	-	nucleotide incorporation / radiometric	2.5 µM
CNC(=O)CCCCC=C(c1cc(OC)c(OC)c(C(=O)OC)c1)c1cc(OC)c(OC)c(C(=O)OC)c1	-	-	nucleotide incorporation	0.804 µM
CC(C)Cn1cc(C(=O)O)c(=O)c2cc(Br)c(Oc3ccnc(Nc4ccc(C#N)cc4)n3)cc21	-	-	RT activity / fluorescence	7.3 µM
O=C(/C=C/c1ccc(O)c(O)c1)O[C@H]1[C@H](O)C[C@](O)(C(=O)O)C[C@H]1OC(=O)/C=C/c1ccc(O)c(O)c1	-	-	RT activity / absorbance	352 µM
CC(C)n1cc(C(=O)O)c(=O)c2cc(Br)c(Oc3ccnc(Nc4ccc(C#N)cc4)n3)cc21	-	-	RT activity / fluorescence	1.39 µM
CCN(Cc1ccccc1)C(=O)C(F)(F)C(=O)[C@H](Cc1ccc(OCc2ccccc2)cc1)NC(=O)[C@@H](NC(=O)OCc1ccccc1)C(C)C	-	-	-	1.75 µM
CCC1(c2ccc(I)cc2)Oc2ccccc2-n2cccc2C1=O	-	RT-Y188L	nucleotide incorporation / radiometric	27 µM
CSCSc1nc(Cc2ccccc2)c(C(C)C)c(=O)[nH]1	IIIB	-	-	6.1 µM
CCn1cc(C(=O)O)c(=O)c2cc(I)c(Oc3ccnc(Nc4ccc(C#N)cc4)n3)cc21	-	-	RT activity / fluorescence	0.37 µM
CCc1c(Sc2ccccn2)n(COCc2ccccc2)c(=O)[nH]c1=O	-	RT-L100I	RT activity	0.3 µM
CC(C)=CCN1Cc2cccc3[nH]c(=S)n(c23)C[C@@H]1C	-	RT-E89G	nucleotide incorporation / radiometric	5 µM
Nc1cc(Cl)nc(SC/C=C/c2ccccc2)n1	-	RT-P236L	nucleotide incorporation	0.066 µM
CCC1(c2cccc(Cl)c2)Cc2ccccc2-n2cccc2C1=O	-	RT-Y181I	nucleotide incorporation / radiometric	>10 µM
CCOCn1c(Cc2ccccc2)c(C(C)C)c(=O)[nH]c1=O	IIIB	-	nucleotide incorporation	0.4 µM
CCN1c2ncc(COc3ccccc3C(=O)OC)cc2C(=O)N(C)c2ccc(Cl)nc21	WT	-	nucleotide incorporation / radiometric	>1 µM
CN(CC(O)C[C@@H](Cc1ccccc1)C(=O)N[C@H]1CCCC[C@@H]1NC(=O)c1ccc2ccccc2n1)[C@@H](CC1CCCCC1)C(=O)NC(C)(C)C	-	-	-	100 µM
CCOc1ccccc1N1CCN(C(=O)c2cc3cc4c(cc3[nH]2)OCO4)CC1	IIIB	RT-P236L	-	>50 µM
CCCCn1cc(C(=O)O)c(=O)c2cc(I)c(Oc3ccnc(Nc4ccc(C#N)cc4)n3)cc21	-	-	RT activity / fluorescence	0.51 µM
CC(C)(C)NC(=O)[C@@H]1C[C@@H]2CCCC[C@@H]2CN1CC(O)C[C@@H](Cc1ccccc1)C(=O)N[C@H]1CCCC[C@@H]1NC(=O)c1ccc2ccccc2n1	-	-	-	100 µM
CCN1c2ncc(COc3ccccc3)cc2C(=O)N(C)c2ccc(Cl)nc21	-	RT-Y181C	nucleotide incorporation / radiometric	<1 µM
CCc1c([Se]c2ccccn2)n(COCc2ccccc2)c(=O)[nH]c1=O	-	RT-L100I	RT activity	0.3 µM
O=C(N[C@H](C(=O)N[C@@H](Cc1ccc(OCc2ccccc2)cc1)C(=O)C(F)(F)C(=O)NCc1ccccc1)C1CCCC1)OCc1ccccc1	-	-	-	1 µM

For reference, 3 entries again:

smiles	strain or isolate	mutations	read by	value
CC(C)Nc1cccnc1N1CCN(C(=O)c2cc3cc4c(cc3[nH]2)OCO4)CC1	IIIB	-	RT activity	0.23 µM
CCNc1cccnc1N1CCN(C(=O)c2cc3cc4c(cc3[nH]2)OCO4)CC1	IIIB	-	RT activity	0.44 µM
CNc1nc(Cc2c(F)cccc2F)cc(=O)[nH]1	-	-	nucleotide incorporation / radiometric	2.5 µM

Blank or dashed fields: not listed here. Neighbouring rows are from separate reports.